Results of unrelated studies side by side (data: NIAID ChemDB).

All rows: tests in culture; organism: HIV-1; read by: p24 / luminescence; endpoint: EC50

Lines come from different laboratories, so protocols vary.

| SMILES | cells | strain or isolate | conditions | changes | value |
|---|---|---|---|---|---|
| CCN[C@H]1CO[C@@H]2OCC[C@H](OC(=O)N[C@@H](Cc3cccc(OC)c3)[C@H](O)CN(CC(C)C)S(=O)(=O)c3ccc4nc(NC(C)C)sc4c3)[C@@H]21 | MT-4 | NL4-3 | - | L23I E34Q K43I M46I I50L G51A L63P A71V V82A T91A | 0.0033 µM |
| COC(=O)N[C@H](C(=O)N[C@@H](Cc1ccccc1)[C@@H](O)CN(Cc1ccc(-c2ccccn2)cc1)NC(=O)[C@@H](NC(=O)OC)C(C)(C)C)C(C)(C)C | MT-4 | NL4-3 | - | L10F M46I I54V V82A | 0.0351 µM |
| CN[C@H]1CO[C@@H]2OCC[C@H](OC(=O)N[C@@H](Cc3cccc(OC)c3)[C@H](O)CN(CC(C)C)S(=O)(=O)c3ccc4nc(NC(C)C)sc4c3)[C@@H]21 | MT-4 | NL4-3 | - | L10I N37D G48V I54V L63P G73C I84V L90M | 0.051 µM |
| COc1ccc(S(=O)(=O)N(CC(C)C)C[C@@H](O)[C@H](Cc2ccccc2)NC(=O)O[C@H]2CO[C@@H]3O[C@H]4OCC[C@H]4[C@@H]32)cc1 | PBMC | - | - | - | >1 µM |
| CS(=O)(=O)O.Cc1c(O)cccc1C(=O)N[C@@H](CSc1ccccc1)[C@H](O)CC1C[C@H]2CCCC[C@H]2C[C@H]1C(=O)NC(C)(C)C.O | MT-4 | NL4-3 | - | - | 0.0321 µM |
| CC(C)CN(C[C@@H](O)[C@H](Cc1ccccc1)NC(=O)O[C@H]1CCOC1)S(=O)(=O)c1ccc(N)cc1 | MT-4 | NL4-3 | - | M46I V82F I84V | 0.5329 µM |
| COC(=O)N[C@H](C(=O)N[C@@H](Cc1ccccc1)[C@@H](O)CN(Cc1ccc(-c2ccccn2)cc1)NC(=O)[C@@H](NC(=O)OC)C(C)(C)C)C(C)(C)C | PBMC | Clinical isolate | clinical isolate, multidrug-resistant | L10I I15V K20R L24I M36I M46L I54V I62V L63P K70Q V82A L89M | 0.039 µM |
| CCN[C@H]1CO[C@@H]2OC[C@H](OC(=O)N[C@@H](Cc3ccccc3)[C@H](O)CN(CC(C)C)S(=O)(=O)c3ccc4nc(NC5CC5)sc4c3)[C@@H]21 | MT-4 | NL4-3 | - | - | 0.0104 µM |
| CCN[C@H]1CO[C@@H]2OCC[C@H](OC(=O)N[C@@H](Cc3ccccc3)[C@H](O)CN(CC(C)C)S(=O)(=O)c3ccc4nc(NC5CC5)sc4c3)[C@@H]21 | MT-4 | NL4-3 | - | - | 0.0025 µM |
| CC(C)CN(C[C@@H](O)[C@H](Cc1ccc(F)cc1)NC(=O)O[C@H]1CCO[C@H]2OCC[C@H]21)S(=O)(=O)c1ccc2nc(NC(C)C)sc2c1 | PBMC | 92UG029 | - | - | 0.0032 µM |
| CN[C@H]1CO[C@@H]2OCC[C@H](OC(=O)N[C@@H](Cc3ccccc3)[C@H](O)CN(CC(C)C)S(=O)(=O)c3ccc4nc(NC5CC5)sc4c3)[C@@H]21 | MT-4 | NL4-3 | - | L10F L33I M36I M46I I54V K55R I62V L63P A71V G73S V82T | 0.0029 µM |
| CC(C)CN(C[C@@H](O)[C@H](Cc1ccccc1)NC(=O)O[C@H]1CCOC1)S(=O)(=O)c1ccc(N)cc1 | MT-4 | NL4-3 | - | - | 0.0294 µM |
| O=C(NC(=S)Nc1ccc(Br)cn1)c1ccccc1[N+](=O)[O-] | PBMC | ERS104pre | - | - | 0.32 µM |
| CC(C)(C)NC(=O)[C@@H]1C[C@@H]2CCCC[C@@H]2CN1CC(O)[C@H](Cc1ccccc1)NC(=O)[C@H](CC(N)=O)NC(=O)c1ccc2ccccc2n1.CS(=O)(=O)O | MT-4 | NL4-3 | - | - | 0.0025 µM |
| COc1ccc(S(=O)(=O)N(CC(C)C)C[C@@H](O)[C@H](Cc2ccc(OC)c(Cl)c2)NC(=O)O[C@H]2CO[C@H]3OCC[C@H]32)cc1 | PBMC | 97ZA003 | - | - | 0.0004 µM |

Repeating the final 2 entries:

SMILES,cells,strain or isolate,conditions,changes,value
CC(C)(C)NC(=O)[C@@H]1C[C@@H]2CCCC[C@@H]2CN1CC(O)[C@H](Cc1ccccc1)NC(=O)[C@H](CC(N)=O)NC(=O)c1ccc2ccccc2n1.CS(=O)(=O)O,MT-4,NL4-3,-,-,0.0025 µM
COc1ccc(S(=O)(=O)N(CC(C)C)C[C@@H](O)[C@H](Cc2ccc(OC)c(Cl)c2)NC(=O)O[C@H]2CO[C@H]3OCC[C@H]32)cc1,PBMC,97ZA003,-,-,0.0004 µM

Blank or dashed fields: not listed here. ECn is the concentration giving n% inhibition of infection, replication or growth.